Anti-infective test results gathered from many reports (values: NIAID ChemDB through PubChem).

Shared fields: cytotoxicity tests; cell line: HepG2; read by: MTT; measure: CC50

CCn: concentration that lowers growth or viability of the cells by n%.

compound,value
COc1cc(CCOC(=O)CCC(=O)CO)cc(O)c1OC,2.15 µM
CN(C)C(=S)Oc1ccc(Cl)cc1C(=O)Nc1ccc(Cl)cc1,83.51 µM
Cc1cc(O)c(C(=O)/C=C/c2ccccc2)c(=O)o1,>80 µg/mL
CN(C(=O)Oc1ccc(Cl)cc1C(=O)Nc1ccc(Cl)cc1)c1ccccc1,289 µM
O=C(CO)CCC(=O)OCCc1ccc2c(c1)OCO2,5.56 µM
CC(C)(C)C1CCc2onc(C(=O)N3CCCCC3)c2C1,>80 µg/mL
O=c1cc(N2CCN(CC3CCCCC3)CC2)sc2c([N+](=O)[O-])cc(C(F)(F)F)cc12,>64 µg/mL
CC(C)C[C@@H]1NC(=O)[C@H](Cc2c[nH]c3ccccc23)NC(=O)[C@@H](CCCCN)NC(=O)[C@H](CO)NC(=O)[C@H](C(C)C)NC(=O)[C@@H](CC(C)C)NC1=O,>30 µM
Cc1cc(=O)[nH]c(N/N=C/c2cc(Cl)cc(Cl)c2O)n1,225.4 µg/mL
CN(C(=O)Oc1ccc(Cl)cc1C(=O)Nc1ccc(C(F)(F)F)cc1)c1ccccc1,>100 µM
C=C1C(C(C)C2CC=C(C)C(=O)O2)=CC[C@]2(C)C1C[C@]1(O)C=C3C=CC(=O)OC(C)(C)C3[C@H](O)CC21,1.75 µM
Cc1ccc(Cl)cc1N=c1c([N+](=O)[O-])nn(-c2ccccc2)n1O,>80 µg/mL
C[C@@H]1O[C@@H](O[C@@H]2[C@@H](O)[C@H](OCCc3ccc(O)c(O)c3)O[C@H](CO)[C@H]2OC(=O)/C=C/c2ccc(O)c(O)c2)[C@H](O)[C@H](O)[C@H]1O,6.03 µM
CO[C@H]1/C=C/O[C@@]2(C)Oc3c(C)c(O)c4c(O)c(c(/C=N/N5CCN(C)CC5)c(O)c4c3C2=O)NC(=O)/C(C)=C\C=C\[C@H](C)[C@H](O)[C@@H](C)[C@@H](O)[C@@H](C)[C@H](OC(C)=O)[C@@H]1C,>30 µM
CC1=CCC(C(C)C2=C(C)C3C[C@]4(O)C=C5C=CC(=O)OC(C)(C)C5[C@H](O)CC4[C@]3(C)C=C2)OC1=O,17.85 µM
C[C@@H]1O[C@@H](O[C@@H]2[C@@H](O)[C@H](OCCc3ccc(O)c(O)c3)O[C@H](COC(=O)/C=C/c3ccc(O)c(O)c3)[C@H]2O)[C@H](O)[C@H](O)[C@H]1O,8.59 µM
Cc1ccc(/C=C/C(=O)c2c(O)cc(C)oc2=O)cc1,>40 µg/mL
C=C1C2C[C@]3(O)C=C4C=CC(=O)OC(C)(C)C4[C@H](O)CC3[C@]2(C)CCC1(O)C(C)C1CC=C(C)C(=O)O1,20.44 µM
O=C(N[C@H](CO)Cc1ccccc1)/C(NC(=O)c1ccc(F)cc1)=C(/Br)c1ccccc1,>100 µM
Nc1ncnc2c1ncn2CCOCP(=O)(O)O,1100 µM
CCCCCC1CC(O)CC(=O)O1,751 µg/mL
CN(C(=O)Oc1ccccc1C(=O)Nc1ccccc1)c1ccccc1,279.9 µM
COc1ccc(/C=C2/SC(=S)N(N)C2=O)cc1,>160 µg/mL
CN(C(=O)Oc1ccc(Cl)cc1C(=O)Nc1ccc(F)cc1)c1ccccc1,512 µM
CC(=O)N1C(=O)/C(=C\C(=O)c2ccc([N+](=O)[O-])cc2)c2ccccc21,>80 µg/mL
C=C(C)C1CCC2[C@]3(CC[C@]4(C)/C(=C(\C)CC/C=C(/C)C(=O)O)CC[C@@]24C)C[C@]13CCC(=O)O,20.44 µM
CN(C(=O)Oc1ccc(Cl)cc1C(=O)Nc1ccc(Br)cc1)c1ccccc1,945.1 µM
CC(C)C[C@@H]1NC(=O)[C@H](Cc2c[nH]c3ccccc23)NC(=O)[C@@H](CCCCN)NC(=O)CNC(=O)[C@H](C(C)C)NC(=O)[C@@H](CC(C)C)NC1=O,>30 µM
CC(=O)OC(C1C=C(C)C(=O)O1)C(C)C1C2C3(O)OC4(CCC12C)C(=CCC1C(C)(C)OC2CC(=O)OC21C4O)C3=O,9.5 µg/mL
C[C@]1(COc2ccc(-n3cc(COc4ccc(OC(F)(F)F)cc4)nn3)cc2)Cn2cc([N+](=O)[O-])nc2O1,>75 µM
COc1cc2c(cc1O)CCN1CC=C3C=C[C@H](OC)C[C@]321,11.8 µg/mL
Cc1occc1-c1nnc(SCC(=O)N(C)c2ccc(F)cc2)o1,>80 µg/mL

Repeating the first 2 entries:

compound,value
COc1cc(CCOC(=O)CCC(=O)CO)cc(O)c1OC,2.15 µM
CN(C)C(=S)Oc1ccc(Cl)cc1C(=O)Nc1ccc(Cl)cc1,83.51 µM

Conditions beyond the fields shown may differ between rows.